Assay results from article PMC2763345 (PLoS Pathogens, 2009).

System: M. tuberculosis clinical isolates
Test: MIC against clinical isolates (resazurin reduction method)
Type: cell-based

| SMILES | activity against multidrug-resistant (MDR) and extensively drug-resistant (XDR) clinical isolates |
| --- | --- |
| O=C(NCCOCc1ccccc1)c1cc([N+](=O)[O-])cc([N+](=O)[O-])c1 [Compound 7, N-(2-(benzyloxy)ethyl)-3,5-dinitrobenzamide] | highly active |
| COc1ccc(OCCNC(=O)c2cc([N+](=O)[O-])cc([N+](=O)[O-])c2)cc1 [Compound 8, N-(2-(4-methoxyphenoxy)ethyl)-3,5-dinitrobenzamide] | highly active |
